Compound potency records, mixed from different reports. Data source: NIAID ChemDB in PubChem.

All rows: target-level tests; organism: HIV-1; target: Reverse transcriptase; method: nucleotide incorporation / radiometric; read-out: fold resistance

An empty or dashed field is not shown.

| compound | changes | strain or isolate | value |
|---|---|---|---|
| CCC1(c2ccc(CNc3cccc(F)c3)cc2)Oc2ccccc2-n2cccc2C1=O | RT-L100I |  | 6.25 |
| CCN1c2ncc(CCOc3ccc4cc(C(=O)O)ccc4c3)cc2C(=O)N(C)c2cccnc21 | RT-Y188L |  | >10 |
| CC(C)(C)OC(=O)Cn1cnc2c(Oc3ccccc3[N+](=O)[O-])nc(NC(=O)OCc3ccccc3)nc21 | Y181I | NNRTI-resistant | 10.8 |
| Cc1c(Cc2c(Cl)cccc2Cl)nc(SCc2ccc(Br)cc2)[nH]c1=O | RT-181I |  | >1025 |
| CCC1(c2cccc(Cl)c2)Oc2ccccc2-n2cccc2C1=O | RT-L100I |  | 16.6 |
| COc1ccc(CSc2nc(Cc3c(Cl)cccc3Cl)c(C)c(=O)[nH]2)c(OC)c1 | RT-181I |  | >16 |
| Nc1ccn([C@@H]2CS[C@H](COP(=O)(O)OP(=O)(O)OP(=O)(O)O)O2)c(=O)n1 | RT-L74V |  | 1.62 |
| Cc1c(Cc2c(F)cccc2F)nc(SCc2ccc(C(C)C)cc2)[nH]c1=O | RT-181I |  | >133 |
| CCC1(c2ccc(Cn3ccsc3=N)cc2)Oc2ccccc2-n2cccc2C1=O | RT-V106A |  | >6.25 |
| CCN1c2ncc(CCOc3ccc(C(=O)O)c4ccccc34)cc2C(=O)N(C)c2cccnc21 | RT-V106A |  | >10 |
| O=C(O)Cn1cnc2c(Oc3ccccc3[N+](=O)[O-])nc(NC(=O)OCc3ccccc3)nc21 | Y181I | NNRTI-resistant | 5 |
| Nc1ccn([C@H]2C[C@H](O)[C@@H](COP(=O)(O)OP(=O)(O)OP(=O)(O)O)O2)c(=O)n1 | RT-L74V |  | 0.42 |
| Cc1c(Cc2c(Cl)cccc2Cl)nc(SCc2ccc(C#N)cc2)[nH]c1=O | RT-K103N |  | >3.88 |
| CC(C)=CCN1Cc2cc(Cl)cc3[nH]c(=O)n(c23)C[C@@H]1C | RT-V106A |  | 10 |
| Cc1cc(C)cc(S(=O)(=O)c2c(C(=O)NNCCO)[nH]c3ccc(Cl)cc23)c1 | RT-Y188L |  | >666 |
| Cc1cn([C@H]2CC[C@@H](COP(=O)(O)OP(=O)(O)OP(=O)(O)O)O2)c(=O)[nH]c1=O | RT-I135M |  | 0.9 |
| CCN1c2ncc(CCOc3ccc(CCC(=O)NN)c4ccccc34)cc2C(=O)N(C)c2cccnc21 | RT-K103N Y181C |  | 1–10 |
| Cc1c(Cc2c(Cl)cccc2Cl)nc(SCc2ccc3c(c2)OCO3)[nH]c1=O | RT-181I |  | >800 |
| CCN1c2ncc(CCOc3ccc(CCC(=O)O)c4ccccc34)cc2C(=O)N(C)c2ccc(C)nc21 | RT-V106A |  | >10 |
| Nc1nc2c(ncn2[C@H]2CC[C@@H](COP(=O)(O)OP(=O)(O)OP(=O)(O)O)O2)c(=O)[nH]1 | RT-V106A |  | 1.23 |
| CCC1(c2ccc(COc3cccc(Cl)c3)cc2)Oc2ccccc2-n2cccc2C1=O | RT-K103N |  | 3 |
| CC(C)=CCOc1cc(NC(=S)c2ccoc2C)ccc1Cl | RT-V106A P225H |  | 157 |
| Cc1c(Cc2c(Cl)cccc2Cl)nc(S(=O)(=O)Cc2ccc(Br)cc2)[nH]c1=O | RT-K103N |  | ~1 |
| Cc1cn([C@H]2C=C[C@@H](COP(=O)(O)OP(=O)(O)OP(=O)(O)O)O2)c(=O)[nH]c1=O | RT-K65R |  | 2.79 |
| Cc1c(Cc2c(F)cccc2F)nc(SCc2ccc([N+](=O)[O-])cc2)[nH]c1=O | RT-181I |  | ~1 |
| Nc1ncnc2c1ncn2[C@@H]1O[C@H](COP(=O)(O)OP(=O)(O)OP(=O)(O)O)C[C@@H]1F | RT-A62V V75I F77L F116Y Q151M |  | 5.38 |
| CCC1(c2ccc(COc3ccccc3)cc2)Oc2ccccc2-n2cccc2C1=O | RT-V106A |  | 5.2 |
| CCOCn1c(Cc2ccccc2)c(C(C)C)c(=O)[nH]c1=O | RT-V106A P225H |  | 219 |
| CCC1(c2ccc(CNc3ccccc3)cc2)Oc2ccccc2-n2cccc2C1=O | RT-Y188L |  | >111 |
| Cc1c(Cc2ccc(F)cc2)nc(SCc2ccc([N+](=O)[O-])cc2)[nH]c1=O | RT-181I |  | ~1 |
| CCC1(c2ccc(CCc3ccccc3)cc2)Oc2ccccc2-n2cccc2C1=O | RT-K103N |  | >58.8 |
| CCN1c2ncc(CCOc3ccc(/C(C)=C/C(=O)O)c4ccccc34)cc2C(=O)N(C)c2cccnc21 | RT-K103N Y181C |  | 1–10 |

For reference, 4 entries again:

| compound | changes | strain or isolate | value |
|---|---|---|---|
| CCC1(c2cccc(Cl)c2)Oc2ccccc2-n2cccc2C1=O | RT-L100I |  | 16.6 |
| CCC1(c2ccc(COc3cccc(Cl)c3)cc2)Oc2ccccc2-n2cccc2C1=O | RT-K103N |  | 3 |
| Nc1ccn([C@@H]2CS[C@H](COP(=O)(O)OP(=O)(O)OP(=O)(O)O)O2)c(=O)n1 | RT-L74V |  | 1.62 |
| Cc1c(Cc2ccc(F)cc2)nc(SCc2ccc([N+](=O)[O-])cc2)[nH]c1=O | RT-181I |  | ~1 |

Neighbouring rows are from separate reports. a–b is a range or a potency band. Fold resistance: result on the changed form divided by that on wild type.